Assay results as given in US9198845B2, “Glutamine derivatives as deodorants” (Givaudan S.A., priority 2010, dated 2015).

Tested on: Corynebacterium Ax 20
Assay: Cleavage of the synthetic compound by the bacterial enzymes (release of 2-ethyl-hexanol or 2-ethyl-hexylamine)
Type: cell-based, Corynebacterium glaucum
Details: for cleavage by the bacteria: conclusion from the data in Table 2; for Release of 2-ethyl-hexanol or 2-ethyl-hexylamine: 2-ethyl-hexylamine for Ia, 2-ethyl-hexanol for II, b.d. = below detection limit
[1] = preincubation 0.5 h, 10 ppm test compound
[2] = preincubation 0.5 h, 100 ppm test compound
[3] = preincubation 0.5 h, 500 ppm test compound
[4] = preincubation 0.5 h, 1000 ppm test compound
[5] = preincubation 4 h, 10 ppm test compound
[6] = preincubation 4 h, 100 ppm test compound
[7] = preincubation 4 h, 500 ppm test compound
[8] = preincubation 4 h, 1000 ppm test compound
[9] = preincubation 8 h, 10 ppm test compound
[10] = preincubation 8 h, 100 ppm test compound
[11] = preincubation 8 h, 500 ppm test compound
[12] = preincubation 8 h, 1000 ppm test compound
[13] = preincubation 24 h, 10 ppm test compound
[14] = preincubation 24 h, 100 ppm test compound
[15] = preincubation 24 h, 500 ppm test compound
[16] = preincubation 24 h, 1000 ppm test compound

## CCCCC(CC)COC(=O)N[C@@H](CCC(N)=O)C(=O)O (stereo partly shown) [Compound II, reference compound]
  cleavage by the bacteria: cleaved by the bacteria
[1]
  Release of 2-ethyl-hexanol or 2-ethyl-hexylamine: 3.9 ppm
[2]
  Release of 2-ethyl-hexanol or 2-ethyl-hexylamine: 26.6 ppm
[3]
  Release of 2-ethyl-hexanol or 2-ethyl-hexylamine: 55.6 ppm
[4]
  Release of 2-ethyl-hexanol or 2-ethyl-hexylamine: 78.3 ppm
[5]
  Release of 2-ethyl-hexanol or 2-ethyl-hexylamine: 3.1 ppm
[6]
  Release of 2-ethyl-hexanol or 2-ethyl-hexylamine: 29.8 ppm
[7]
  Release of 2-ethyl-hexanol or 2-ethyl-hexylamine: 115.2 ppm
[8]
  Release of 2-ethyl-hexanol or 2-ethyl-hexylamine: 177.3 ppm
[9]
  Release of 2-ethyl-hexanol or 2-ethyl-hexylamine: 3.1 ppm
[10]
  Release of 2-ethyl-hexanol or 2-ethyl-hexylamine: 27.6 ppm
[11]
  Release of 2-ethyl-hexanol or 2-ethyl-hexylamine: 152.3 ppm
[12]
  Release of 2-ethyl-hexanol or 2-ethyl-hexylamine: 288.2 ppm
[13]
  Release of 2-ethyl-hexanol or 2-ethyl-hexylamine: 2.3 ppm
[14]
  Release of 2-ethyl-hexanol or 2-ethyl-hexylamine: 17.5 ppm
[15]
  Release of 2-ethyl-hexanol or 2-ethyl-hexylamine: 89.5 ppm
[16]
  Release of 2-ethyl-hexanol or 2-ethyl-hexylamine: 176.0 ppm

## CCCCC(CC)CNC(=O)N[C@@H](CCC(N)=O)C(=O)O (stereo partly drawn) [Compound Ia, N2-[(2-ethylhexylamino)carbonyl]-L-glutamine]
  cleavage by the bacteria: stable
[1]
  Release of 2-ethyl-hexanol or 2-ethyl-hexylamine: b.d.
[2]
  Release of 2-ethyl-hexanol or 2-ethyl-hexylamine: b.d.
[3]
  Release of 2-ethyl-hexanol or 2-ethyl-hexylamine: b.d.
[4]
  Release of 2-ethyl-hexanol or 2-ethyl-hexylamine: b.d.
[5]
  Release of 2-ethyl-hexanol or 2-ethyl-hexylamine: b.d.
[6]
  Release of 2-ethyl-hexanol or 2-ethyl-hexylamine: b.d.
[7]
  Release of 2-ethyl-hexanol or 2-ethyl-hexylamine: b.d.
[8]
  Release of 2-ethyl-hexanol or 2-ethyl-hexylamine: b.d.
[9]
  Release of 2-ethyl-hexanol or 2-ethyl-hexylamine: b.d.
[10]
  Release of 2-ethyl-hexanol or 2-ethyl-hexylamine: b.d.
[11]
  Release of 2-ethyl-hexanol or 2-ethyl-hexylamine: b.d.
[12]
  Release of 2-ethyl-hexanol or 2-ethyl-hexylamine: b.d.
[13]
  Release of 2-ethyl-hexanol or 2-ethyl-hexylamine: b.d.
[14]
  Release of 2-ethyl-hexanol or 2-ethyl-hexylamine: b.d.
[15]
  Release of 2-ethyl-hexanol or 2-ethyl-hexylamine: b.d.
[16]
  Release of 2-ethyl-hexanol or 2-ethyl-hexylamine: b.d.
